Measured values from several laboratories, pooled; numbers as filed in NIAID ChemDB.

All rows: tests in culture; organism: Varicella zoster virus

An empty or dashed field is not shown.

structure	measure	method	strain or isolate	cell line	result
O=C(NCc1ccc(Cl)cc1)c1cn(N2CCOCC2)c2ccc(CN3CCOCC3)cc2c1=O	EC50	plaque count	Webster	HFF	0.4 µM
Cc1c(Br)cc(Br)c2ncc(CSCc3ccco3)n12	EC50	plaque count	07/1 (TK-)	HEL	>20 µg/mL
O=c1[nH]c(=O)n([C@@H]2O[C@H](CO)[C@@H](O)[C@@H]2F)cc1I	EC50	plaque count	OKA	CCRF-HSB-2	0.21 µM
Nc1ncnc2c1ncn2CC[C@H](O)CCO	EC50	cytopathic effect	OKA	HEL	>400 µg/mL
C=Cc1cc([C@H]2C[C@H](O)[C@@H](CO)O2)c(F)cc1F	EC50	plaque count	07/1 (TK-)	HEL	>200 µM
Cc1c(Br)cc(Br)c2ncc(CSCc3cccs3)n12	EC50	plaque count	YS (TK+)	HEL	>2 µg/mL
CCCCCOc1ccc(-c2cc3cn([C@H]4C[C@H](O)[C@@H](CO)O4)c(=O)nc3o2)cc1	EC50	plaque count	YS	HEL	0.001 µM
Nc1nc2c(ncn2C[C@]2(CO)C[C@H]2CO)c(=O)[nH]1	EC50	cytopathic effect	-	VERO	1–10 µM
COC(=O)C(C)NP(=O)(OC[C@@H]1C/C1=C/n1cc(N)c(=O)[nH]c1=O)Oc1ccccc1	EC50	plaque count	-	HFF	56.2 µM
CC(NC(=S)Nc1ccc(NC(=O)c2ccccc2F)cc1)c1ccc(F)cc1	EC50	ELISA	JAB1244	HFF	0.59 µg/mL
Cc1cccc(CSCc2cnc3c(Br)cc(Br)c(C)n23)c1	EC50	plaque count	YS (TK+)	HEL	13 µg/mL
CC(NC(=S)Nc1ccc(NC(=O)c2ccccc2F)c(C#N)c1)c1ccc(F)cc1	EC50	-	-	-	0.11 µM
O=c1[nH]c(=O)n([C@H]2C[C@H](O)[C@@H](CO)O2)cc1/C=C/Br	EC50	cytopathic effect	YS	HEL	0.0047 µM
Cc1nc([N+](=O)[O-])c(N2CCCC2)n1Cc1ccc(Cl)cc1	EC50	cytopathic effect	OKA (TK+)	HEL	2 µg/mL
COc1ccc(-c2cc3ccccn3c2)cc1OC	EC50	plaque count	G-31	MRC-5	>40 µM
Nc1ncnc2c1ncn2[C@@H]1C=C(CO)[C@@H](O)[C@H]1O	EC50	cytopathic effect	07/1 YS/R (TK-)	E6SM	70 µg/mL
CO[C@H](CO)[C@@H](O)CCn1ccc(N)nc1=O	EC50	cytopathic effect	YS/R (TK-)	HEL	>400 µg/mL
Cc1c(Br)cc(Br)c2ncc(CSCc3ccc(Cl)cc3Cl)n12	EC50	plaque count	07/1 (TK-)	HEL	3.1 µg/mL
Nc1nc2c(ncn2COC(CO)CO)c(=O)[nH]1	EC50	cytopathic effect	-	-	0.5 µg/mL
Nc1ncnc2c1ncn2CCCC(O)CF	EC50	cytopathic effect	07-01/TK-	HEL	>50 µg/mL
O=c1[nH]c(=O)n([C@@H]2O[C@H](CO)[C@@H](O)[C@@H]2O)cc1/C=C/Br	EC50	plaque count	OKA	CCRF-HSV-B	0.013 µg/mL
Fc1cccn2cc(-c3ccccc3)cc12	EC50	plaque count	G-31	MRC-5	>40 µM
Cc1c(Br)cc(Br)c2ncc(CSCc3ccc(Cl)c(Cl)c3)n12	EC50	plaque count	YS/R (TK-)	HEL	2.8 µg/mL
CCCCCCOc1ccc(-c2cc3cn([C@H]4C[C@H](O)[C@@H](CO)O4)c(=O)nc3o2)cc1	EC50	plaque count	OKA	HEL	0.0015 µM
CCOC(=O)/C=C\C=C\[C@H]1O[C@@H](n2ccc(=O)[nH]c2=O)[C@H](O)[C@@H]1O	EC50	-	07/1	HEL	10 µM
c1ccn2cc(-c3ccoc3)cc2c1	EC50	plaque count	G-31	MRC-5	>40 µM
CCCCCc1ccc(-c2cc3cn([C@H]4C[C@H](Cl)[C@@H](CO)O4)c(=O)nc3o2)cc1	EC50	-	-	HEL	>5 µM
CC(N)c1cn([C@H]2C[C@H](O)[C@@H](CO)O2)c(=O)[nH]c1=O	EC50	cytopathic effect	ELLEN	HFF	>87 µM
OC[C@H]1O[C@@H](c2cc(C#CI)c(F)cc2F)C[C@@H]1O	EC50	plaque count	YS	HEL	>20 µM
O=c1[nH]c(=O)n([C@@H]2O[C@H](CO)[C@@H](O)[C@@H]2O)cc1I	EC50	plaque count	OKA	CCRF-HSB-2	70 µM
O=C(NCc1ccc(Cl)cc1)c1c[nH]c2ccc(C#CCO)cc2c1=O	EC50	plaque count	CAR	-	0.2 µM
Cc1cn(CC[C@H](O)CCO)c(=O)[nH]c1=O	EC50	cytopathic effect	OKA	HEL	>400 µg/mL
CC(=O)c1c(-c2ccccc2)cc2ccccn12	EC50	plaque count	G-31	MRC-5	>40 µM
Nc1nc2c(ncn2COC(CO)CO)c(=O)[nH]1	EC50	cytopathic effect	OKA	HEL	0.73 µM
O=c1[nH]c(=O)n([C@H]2C[C@H](O)[C@@H](CCl)O2)cc1I	EC50	-	-	HEL	>5 µM
OC[C@H]1O[C@@H](c2ccccc2)[C@H](O)[C@@H]1O	EC50	plaque count	OKA	HEL	>50 µg/mL
COC(=O)C(C)NP(=O)(OC[C@@H]1C/C1=C\n1cc(N)c(=O)[nH]c1=O)Oc1ccccc1	EC50	plaque count	-	HFF	92.4 µM
O=c1[nH]c(=O)n([C@H]2C[C@H](O)[C@@H](CO)O2)cc1I	MIC	-	-	-	45 µg/mL
O=c1[nH]c(=O)n([C@@H]2S[C@H](CO)[C@@H](O)[C@@H]2F)cc1I	EC50	plaque count	OKA	CCRF-HSB-2	17.5 µM
CCCCCc1ccc(-c2cc3cn([C@H]4C[C@H](O)[C@@H](CCl)O4)c(=O)nc3o2)cc1	EC50	-	-	HEL	>5 µM
CCOc1ccc(-c2cc3cn([C@H]4C[C@H](O)[C@@H](CO)O4)c(=O)nc3o2)cc1	EC50	plaque count	OKA	HEL	0.009 µM
Nc1nc2c(ncn2COC[C@@H](O)CO)c(=O)[nH]1	EC50	plaque count	KMCC	MRC-5	>25 µg/mL
c1ccc(-c2cc3ccccn3c2)nc1	EC50	plaque count	G-31	MRC-5	10 µM
CCc1cn([C@H]2C[C@H](O)[C@@H](CO)O2)c(=O)[nH]c1=O	EC50	cytopathic effect	ELLEN	HFF	>67 µM
Nc1nc2c(ncn2COC2COP(=O)(O)OC2)c(=O)[nH]1	EC50	plaque count	OKA	MRC-5	0.3–0.6 µM
CC[Si]1(C(C)C)O[C@H]2[C@@H](O)[C@H](c3ccccc3)O[C@@H]2CO[Si](C(C)C)(C(C)C)O1	EC50	plaque count	07/1	HEL	>2 µg/mL
Nc1nc2c(ncn2[C@@H]2C[C@H](CO)[C@H]2CO)c(=O)[nH]1	EC50	cytopathic effect	-	VERO	0.01–0.1 µM
CCCCCCCC/C=C/CCCCCCCC(=O)OCC(CO)OCn1cnc2c(=O)[nH]c(N)nc21	EC50	cytopathic effect	OKA	HEL	1.4 µM
Cc1c(Br)cc(Br)c2ncc(CSCc3ccccc3)n12	EC50	plaque count	YS/R (TK-)	HEL	>20 µg/mL
CC(=O)c1ccc2cc(-c3ccccc3)cn2c1	EC50	plaque count	G-31	MRC-5	>50 µM
Nc1nc2c(ncn2CCCC(O)CF)c(=O)[nH]1	EC50	cytopathic effect	YS	HEL	>50 µg/mL
Nc1nc2c(ncn2[C@@H]2C=C[C@H](CO)CC2)c(=O)[nH]1	EC50	cytopathic effect	-	VERO	1–10 µM
COC(=O)C(C)NP(=O)(OC[C@@H]1C/C1=C\n1cc(C)c(=O)[nH]c1=O)Oc1ccccc1	EC50	plaque count	-	HFF	>300 µM
Nc1nc2c(ncn2CC[C@H](O)CCO)c(=O)[nH]1	EC50	cytopathic effect	OKA	HEL	>400 µg/mL
OC[C@H]1O[C@@H](c2cc(C#CBr)c(F)cc2F)C[C@@H]1O	EC50	plaque count	OKA	HEL	29 µM

Again, the opening 5 rows:

structure | measure | method | strain or isolate | cell line | result
O=C(NCc1ccc(Cl)cc1)c1cn(N2CCOCC2)c2ccc(CN3CCOCC3)cc2c1=O | EC50 | plaque count | Webster | HFF | 0.4 µM
Cc1c(Br)cc(Br)c2ncc(CSCc3ccco3)n12 | EC50 | plaque count | 07/1 (TK-) | HEL | >20 µg/mL
O=c1[nH]c(=O)n([C@@H]2O[C@H](CO)[C@@H](O)[C@@H]2F)cc1I | EC50 | plaque count | OKA | CCRF-HSB-2 | 0.21 µM
Nc1ncnc2c1ncn2CC[C@H](O)CCO | EC50 | cytopathic effect | OKA | HEL | >400 µg/mL
C=Cc1cc([C@H]2C[C@H](O)[C@@H](CO)O2)c(F)cc1F | EC50 | plaque count | 07/1 (TK-) | HEL | >200 µM

Lines come from different laboratories, so protocols vary. ECn: concentration that inhibits the pathogen or its effect by n%. Two numbers with a dash give a range or band.